Values from PubChem BioAssay AID1259414 (Drosophila RNAi Screening Center, 2018).
Assay: 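Fly genes that alter Wolbachia amount inside host cells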 (primary screen). System: Drosophila JW18 cells infected with Wolbachia. Knock-down reagent: long dsRNA against Drosophila genes, 0.25 µg dsRNA per well of a 384-well plate. Timing: 5 days. Conditions: cells persistently infected with Wolbachia before knock-down; no added drug. Read-out: 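Automated imaging of bacterial rRNA staining divided by host cell count, reported as plate-normalised robust z-score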. Reading the numbers: Wolbachia per cell robust z: higher = more Wolbachia per host cell than the plate typical. Call rule: 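Active if absolute robust z reaches 1.5 in two or more of three replicates, leaving out multi- or no-target dsRNAs, genes unexpressed in JW18 and A1 wells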.
The screen tested about 24,000 reagents; this is a random part of those that have a named target and a result. In the full data, about 1,210 (5%) were called active. 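Inactive calls also include excluded dsRNAs with several or no targets, genes unexpressed in JW18, and well A1, regardless of score.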

The opening 3 entries, to show the layout:
no.	predicted target	DRSC id	Wolbachia per cell robust z, rep 1	Wolbachia per cell robust z, rep 2	Wolbachia per cell robust z, rep 3	activity call
1	CG42587	DRSC41374	-0.114	-0.875	-0.421	inactive
2	CG3847	DRSC17444	-3.88	-1.1	-0.212	inactive
3	CG3847	DRSC18327	1.49	1.44	0.69	inactive

Results, repeating the preview:
no.	predicted target	DRSC id	Wolbachia per cell robust z, rep 1	Wolbachia per cell robust z, rep 2	Wolbachia per cell robust z, rep 3	activity call
1	CG42587	DRSC41374	-0.114	-0.875	-0.421	inactive
2	CG3847	DRSC17444	-3.88	-1.1	-0.212	inactive
3	CG3847	DRSC18327	1.49	1.44	0.69	inactive
4	CG3847	DRSC26193	-0.0939	-0.175	0.686	inactive
5	CG14260	DRSC14755	-0.265	0.032	-1.52	inactive
6	Dlg5 (Discs large 5)	DRSC02964	0.982	-1.14	-1.54	inactive
7	Dlg5 (Discs large 5)	DRSC27257	-0.517	-0.0743	-5.48	inactive
8	CG16865	DRSC01904	-0.246	-0.0461	0.284	inactive
9	DIP-eta (Dpr-interacting protein eta)	DRSC02342	0.443	0.742	-2.24	inactive
10	CG2120	DRSC18207	0.0946	-0.892	-3.6	inactive
11	CG2120	DRSC26944	1.2	0.13	1.96	inactive
12	CG12689	DRSC17879	-0.945	-1.07	-0.482	inactive
13	CG1902	DRSC06798	-0.163	-0.294	0.0775	inactive
14	Hand	DRSC02656	1.4	-0.275	-0.896	inactive
15	Arpc3A (Actin-related protein 2/3 complex, subunit 3A)	DRSC15596	1.95	0.445	0.144	inactive
16	Arpc3A (Actin-related protein 2/3 complex, subunit 3A)	DRSC27915	0.00698	0.887	0.268	inactive
17	CG4374	DRSC15570	-3.36	0.582	0.703	inactive
18	CG4374	DRSC27482	0.638	-1.17	0.685	inactive
19	fbl (fumble)	DRSC11886	0.767	-0.851	-1.2	inactive
20	fbl (fumble)	DRSC27922	1.01	0.83	0.461	inactive
21	fbl (fumble)	DRSC29115	1	0.703	0.706	inactive
22	CG34028	DRSC38800	-1.99	0.184	1.19	inactive
23	NT5E-2 (Ecto-5'-nucleotidase 2)	DRSC06893	0.105	0.0619	0.059	inactive
24	Rala (Ras-like protein A)	DRSC18703	-0.486	0.0447	0.454	inactive
25	Rala (Ras-like protein A)	DRSC27866	-0.391	0.975	-0.508	inactive
26	CG43147	DRSC40523	0.905	1.24	-2.01	inactive
27	danr (distal antenna-related)	DRSC14651	1.03	-1.81	0.0774	inactive
28	danr (distal antenna-related)	DRSC27029	-7.22	-0.36	1.69	inactive
